Compound potency records, mixed from different reports. Data source: NIAID ChemDB in PubChem.

All rows: tests in culture; species: Candida albicans

Blank or dashed fields: not listed here.

| smiles | read-out | strain or isolate | method | setting | result |
|---|---|---|---|---|---|
| COc1cc(/C=C/c2ccc(O)cc2)cc(OC)c1 | MIC80 | Y0109 | broth dilution |  | 32 µg/mL |
| Nc1ccc(NC(=O)c2ccccc2)c(O)c1 | MIC | ATCC 10231 |  |  | 125 µg/mL |
| CC(=O)Oc1c(Cl)cccc1C(=O)Nc1ccc(Cl)c(Cl)c1 | MIC | ATCC 44859 |  |  | 7.81 µg/mL |
| O=C(CN1CCNCC1)Nc1ccc2oc(-c3ccc(F)cc3)nc2c1 | MIC | ATCC 10145 |  |  | 25 µg/mL |
| CC(=O)Oc1c(Cl)cccc1C(=O)Nc1ccc(Cl)cc1 | MIC | ATCC 44859 |  |  | 31.25 µg/mL |
| N/C(=N/N=C1CCCC1)SCc1ccc(Cl)cc1Cl | MFC |  |  |  | >200 µg/mL |
| CC(=O)Oc1cc(Cl)ccc1C(=O)Nc1ccc(Br)cc1 | MIC | ATCC 44859 |  |  | 7.81 µg/mL |
| CCCCOc1ccc(CC(=O)Nc2ccc3oc(-c4ccccc4)nc3c2)cc1 | MIC | ATCC 10145 |  |  | 25 µg/mL |
| Nc1ccc(NC(=O)Cc2ccc(Cl)cc2)c(O)c1 | MIC | ATCC 10231 |  |  | 62.5 µg/mL |
| CCCCCCCCCCOC[N+](C)(C)CCCCCCCC | MIC | ATCC 10231 |  |  | 137 µM |
| CC(=O)Oc1cc(Cl)ccc1C(=O)N(C(C)=O)c1ccc(Br)cc1 | MIC | ATCC 44859 |  |  | 31.25 µg/mL |
| Cc1c(O)cccc1C(=O)N[C@@H](CSc1ccccc1)[C@H](O)CN1C[C@H]2CCCC[C@H]2C[C@H]1C(=O)NC(C)(C)C | MIC | I53 |  |  | >64 µg/mL |
| Cc1ccc(CC(=O)Nc2ccc([N+](=O)[O-])cc2O)cc1 | MIC | ATCC 10231 |  |  | 250 µg/mL |
| CCCCCCCCCCCC[N+](C)(C)COCCCCCCCCCCC | MBC | ATCC 10231 |  |  | 115 µM |
| CCc1ccc(-c2nc3cc(NC(=O)CN4CCN(C)CC4)ccc3o2)cc1 | MIC | ATCC 10145 |  |  | 25 µg/mL |
| C[C@H]1[C@H](O)[C@@H](C)/C=C/C=C/C=C/C=C/C=C/C=C/C=C/[C@H](O[C@@H]2O[C@H](C)[C@@H](O)[C@H](N)[C@@H]2O)C[C@@H]2O[C@](O)(C[C@@H](O)C[C@@H](O)CC[C@H](O)[C@@H](O)C[C@@H](O)CC(=O)O[C@H]1C)C[C@H](O)[C@H]2C(=O)O | MIC | 2005E |  |  | 0.002 µg/mL |
| CC1(C)O[C@H]2OC(COCC(O)CNCCCCCCCCNC(O)COCC3O[C@@H]4OC(C)(C)O[C@@H]4[C@H]4OC(C)(C)O[C@@H]34)[C@@H]3OC(C)(C)O[C@@H]3[C@H]2O1 | MIC |  |  |  | >50 µg/mL |
| N/C(=N/N=C1CCCCCCC1)SCc1ccc(Cl)cc1Cl | MIC |  |  |  | >200 µg/mL |
| O=C(Cc1ccccc1)Nc1ccc2oc(-c3ccccc3)nc2c1 | MIC | ATCC 10145 |  |  | 50 µg/mL |
| OC(Cn1cncn1)(Cn1cncn1)c1ccc(F)cc1F | MIC90 | Isolate HR-Micro |  | 48 h | ≥100 µg/mL |
| CCCCCCCCCCCC[N+](C)(C)COC(C)CCC | MBC | ATCC 10231 |  |  | 143 µM |
| O=C(Nc1cc([N+](=O)[O-])ccc1O)c1ccc(F)cc1 | MIC | ATCC 10231 |  |  | 7.8 µg/mL |
| N/C(=N/N=C1CCCCCCC1)SCc1ccccc1Cl | MFC |  |  |  | >200 µg/mL |
| CCCCCCCCCCCC[N+](C)(C)COCC(C)CCC | MBC | ATCC 10231 |  |  | 27.5 µM |
| O=[N+]([O-])c1cccc(CN(Cc2cccc(C(F)(F)F)c2)Cc2cccc(CN(CCNCCCO)Cc3cccc(C(F)(F)F)c3)n2)c1 | MIC | ATCC 10231 |  |  | >100 µM |
| C[C@@H]([C@H](N)C(=O)N[C@H](C(=O)O)[C@H]1O[C@@H](n2ccc(=O)[nH]c2=O)[C@H](O)[C@@H]1O)[C@H](O)c1ccc(O)cn1 | Geometric mean MIC | 36 isolates |  |  | 4.7 µg/mL |
| O=C(Cc1ccc(Cl)cc1)Nc1ccc2oc(-c3ccccc3)nc2c1 | MIC | ATCC 10145 |  |  | 50 µg/mL |
| CC(=O)Oc1c(Cl)cccc1C(=O)Nc1cccc(Cl)c1 | MIC | ATCC 44859 |  |  | 62.5 µg/mL |
| C[C@H]1[C@H](O)[C@@H](C)/C=C/C=C/C=C/C=C/C=C/C=C/C=C/[C@H](O[C@@H]2O[C@H](C)[C@@H](O)[C@H](N)[C@@H]2O)C[C@@H]2O[C@](O)(C[C@@H](O)C[C@@H](O)CC[C@H](O)[C@@H](O)C[C@@H](O)CC(=O)O[C@H]1C)C[C@H](O)[C@H]2C(=O)O | MIC | IFO 1594 |  |  | 1.56 µg/mL |
| CCCCCC/C=C/CCCCC/C=C/[C@@H](C)[C@H](CO[C@@H]1O[C@H](CO)[C@@H](O)[C@H](O)[C@H]1O)NC(=O)[C@H](O)CCCCCCCCCCCCCC | MIC | ATCC 2091 |  |  | 10 µg/mL |
| O=C(O)c1cccc(C(=O)O)n1 | MIC | ATCC 10231 |  |  | >450 µg/mL |
| Cc1ccc(CC(=O)Nc2ccc(N)cc2O)cc1 | MIC | Isolates |  |  | 250 µg/mL |
| CC(=O)N1CCN(c2ccc(OC[C@H]3CO[C@](Cn4ccnc4)(c4ccc(Cl)cc4Cl)O3)cc2)CC1 | MIC | 2402E |  |  | 0.001 µg/mL |
| O=C(Nc1cc([N+](=O)[O-])ccc1O)c1ccccc1 | MIC | ATCC 10231 |  |  | 31.25 µg/mL |
| CC(C)(C)c1ccc(-c2nc3cc(NC(=O)CN4CCOCC4)ccc3o2)cc1 | MIC | ATCC 10145 |  |  | 50 µg/mL |
| Nc1ccc(NC(=O)c2ccc(Br)cc2)c(O)c1 | MIC | ATCC 10231 |  |  | 125 µg/mL |
| CCc1ccc(-c2nc3cc(NC(=O)Cc4ccccc4)ccc3o2)cc1 | MIC | ATCC 10145 |  |  | 50 µg/mL |
| CCCCCCCCCCCC[N+](C)(C)CSCCCCCC | MIC | ATCC 10231 |  |  | 26.3 µM |
| O=S1c2ccccc2SN1C1CC1 | MIC | 579A |  |  | 25 µg/mL |
| C=C1/C=C(\C)[C@H](CC)OC(=O)[C@H](C)C(=O)C(O)(CO)C/C(C)=C/[C@@H](C)C1 | MIC | MY1055 |  |  | >200 µg/mL |
| CC1CCC/C(=N\Nc2nc(-c3ccccc3)cs2)CC1 | MIC |  |  |  | 0.39 µg/mL |
| CCCCCCCCCCCC[N+](C)(C)COCCCCCCCCC | MBC | ATCC 10231 |  |  | 62 µM |
| c1ccc(-c2csc(NN=C3CCCCCCC3)n2)cc1 | MIC |  |  |  | 3.12 µg/mL |
| CCCCCCCCCCCC[N+](C)(C)COCCC(C)CCCC(C)C | MBC | ATCC 10231 |  |  | 1190 µM |
| CC1CCCCC/C1=N\Nc1nc(-c2ccccc2)cs1 | MIC |  |  |  | 3.12 µg/mL |
| C[C@H]1[C@H](O)[C@@H](C)/C=C/C=C/C=C/C=C/C=C/C=C/C=C/[C@H](O[C@@H]2O[C@H](C)[C@@H](O)[C@H](N)[C@@H]2O)C[C@@H]2O[C@](O)(C[C@@H](O)C[C@@H](O)CC[C@H](O)[C@@H](O)C[C@@H](O)CC(=O)O[C@H]1C)C[C@H](O)[C@H]2C(=O)O | MIC90 | 126 strains |  |  | 0.12 µg/mL |

Again, the opening 5 rows:

smiles | read-out | strain or isolate | method | setting | result
COc1cc(/C=C/c2ccc(O)cc2)cc(OC)c1 | MIC80 | Y0109 | broth dilution |  | 32 µg/mL
Nc1ccc(NC(=O)c2ccccc2)c(O)c1 | MIC | ATCC 10231 |  |  | 125 µg/mL
CC(=O)Oc1c(Cl)cccc1C(=O)Nc1ccc(Cl)c(Cl)c1 | MIC | ATCC 44859 |  |  | 7.81 µg/mL
O=C(CN1CCNCC1)Nc1ccc2oc(-c3ccc(F)cc3)nc2c1 | MIC | ATCC 10145 |  |  | 25 µg/mL
CC(=O)Oc1c(Cl)cccc1C(=O)Nc1ccc(Cl)cc1 | MIC | ATCC 44859 |  |  | 31.25 µg/mL

A number after MIC or MFC names an inhibition level or a share of isolates. Lines come from different laboratories, so protocols vary.